This experiment is described as follows: Inhibition Assay: The enzyme activity of NS5B570-Con1 (Delta-21) was measured as an incorporation of tritiated NMP into acid-insoluble RNA products. The complementary IRES (cIRES) RNA sequence was used as a template, corresponding to 377 nucleotides from the 3′-end of HCV (−) strand RNA of the Con-1 strain, with a base content of 21% Ade, 23% Ura, 28% Cyt, and 28% Gua. The cIRES RNA was transcribe.

As a reminder, the IC50 is the concentration that gives 50% inhibition. `O=c1ccn([C@@H]2O[C@](F)(COP(=O)(O)OP(=O)(O)OP(=O)(O)O)[C@@H](O)[C@]2(F)CF)c(=O)[nH]1` gave an IC50 of less than 1000 nM.

`C#C[C@]1(F)[C@H](n2ccc(N)nc2=O)O[C@](F)(COP(=O)(O)OP(=O)(O)OP(=O)(O)O)[C@H]1O`: the IC50 is less than 1000 nM.

Molecule `C[C@]1(N=[N+]=N)[C@H](n2ccc(N)nc2=O)O[C@](F)(COP(=O)(O)OP(=O)(O)OP(=O)(O)O)[C@H]1O` returned an IC50 of less than 1000 nM.

Values taken from ChEMBL document CHEMBL5728012, “Substituted nucleosides, nucleotides and analogs thereof” (2020).
